Values of other authors in paper PMC12676205, “New Se‐Compounds With Antileishmanial, Antitumor, and Carbonic Anhydrase Inhibitory Properties” (Archiv Der Pharmazie, 2025).

Columns and labels:
L. major promastigotes = system: L. major promastigotes; set-up: method as in PMID 37570815, PMID 36364304; settings: CC50 THP‐1 / IC50; reference drugs; cited from earlier work
[1] = system: L. infantum promastigotes; set-up: method as in PMID 37570815, PMID 36364304; settings: CC50 THP‐1 / IC50; reference drugs; cited from earlier work

| SMILES | SI L. major (L. major promastigotes) | SI L. infantum [1] |
| --- | --- | --- |
| NC[C@@H]1O[C@H](O[C@H]2[C@@H](O)[C@H](O[C@@H]3[C@@H](O)[C@H](N)C[C@H](N)[C@H]3O[C@H]3O[C@H](CO)[C@@H](O)[C@H](O)[C@H]3N)O[C@@H]2CO)[C@H](N)[C@@H](O)[C@@H]1O [Paromomycin, paromomycin] | 0.6 | 2.2 |
| CCCCCCCCCCCCCCCCOP(=O)([O-])OCC[N+](C)(C)C [Miltefosine, miltefosine] | 0.2 | 0.4 |
